## Single amino acid changes in Zika NS2B-NS3 and viral growth

Chain scanned (Zika virus MR766; NS2B from position 2 to 131, then the start of NS3):
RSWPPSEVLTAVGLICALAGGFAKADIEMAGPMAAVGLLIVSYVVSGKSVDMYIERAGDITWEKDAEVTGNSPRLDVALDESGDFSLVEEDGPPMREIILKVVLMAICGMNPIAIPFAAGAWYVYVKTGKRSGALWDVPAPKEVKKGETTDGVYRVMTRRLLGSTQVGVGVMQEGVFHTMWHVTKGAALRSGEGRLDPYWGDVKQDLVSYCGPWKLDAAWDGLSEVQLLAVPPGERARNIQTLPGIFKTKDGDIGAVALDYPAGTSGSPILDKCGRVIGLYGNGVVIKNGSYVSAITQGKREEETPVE

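Mutant virus pools were grown in human Huh-7.5 cells. Deep sequencing gave the change in frequency of each mutant relative to wild type, averaged over three replicate libraries (two for positions 207-308). The aim was to find sites where inhibitor-binding pockets cannot change.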

Scale: log2 effect, wild type = 0; the lower, the more harmful to the virus.
Each entry names the wild-type residue, its position and the residue put in its place.
This list holds changes to glutamate only.

substitution,effect (log2)
R1E,-7.81
S2E,-7.21
W3E,-6.96
P4E,-5.62
P5E,-6.03
S6E,-4.72
V8E,-5.78
L9E,-4.55
T10E,-3.16
A11E,-6.01
V12E,-6.31
G13E,-5.47
L14E,-5.00
I15E,-6.50
C16E,-5.60
A17E,-3.29
L18E,-6.54
A19E,-6.81
G20E,-3.68
G21E,-7.02
F22E,-6.21
A23E,-2.54
K24E,-2.48
A25E,-6.52
D26E,-2.09
I27E,-5.43
M29E,-2.80
A30E,-4.38
G31E,-5.09
P32E,-5.31
M33E,-5.69
A34E,-4.62
A35E,-5.81
V36E,-5.43
G37E,-5.87
L38E,-5.99
L39E,-4.09
I40E,-4.73
V41E,-4.99
S42E,-5.51
Y43E,-5.59
V44E,-5.22
V45E,-4.64
S46E,-6.16
G47E,-4.98
K48E,-5.58
S49E,-5.62
V50E,-5.93
D51E,-1.27
M52E,-5.71
Y53E,-5.85
I54E,-5.57
R56E,-5.62
A57E,-0.57
G58E,-5.78
D59E,-1.10
I60E,-5.83
T61E,-0.24
W62E,-6.51
K64E,0.01
D65E,-3.07
A66E,-7.02
V68E,-5.85
T69E,-5.99
G70E,-5.75
N71E,-5.63
S72E,-5.41
P73E,-5.27
R74E,-5.34
L75E,-5.98
D76E,0.47
V77E,-6.57
A78E,0.34
L79E,-5.97
D80E,-5.97
S82E,-6.21
G83E,-6.25
D84E,-5.93
F85E,-5.33
S86E,-5.82
L87E,-6.86
V88E,-5.44
D91E,-0.46
G92E,-5.05
P93E,-3.93
P94E,-1.21
M95E,-5.28
R96E,-5.48
I98E,-5.32
I99E,-5.27
L100E,-4.97
K101E,-4.90
V102E,-5.14
V103E,-5.23
L104E,-5.98
M105E,-6.06
A106E,-5.36
I107E,-5.10
C108E,-5.63
G109E,-4.59
M110E,-5.32
N111E,-4.00
P112E,-5.08
I113E,-5.40
A114E,-5.61
I115E,-5.00
P116E,-5.56
F117E,-5.09
A118E,-5.36

Excerpt, the final 13 entries:

substitution	effect (log2)
A106E	-5.36
I107E	-5.10
C108E	-5.63
G109E	-4.59
M110E	-5.32
N111E	-4.00
P112E	-5.08
I113E	-5.40
A114E	-5.61
I115E	-5.00
P116E	-5.56
F117E	-5.09
A118E	-5.36

The region was split into three libraries (1-103, 104-206, 207-308).
Position 1 still belongs to NS2A. In the paper, -1 or higher counts as tolerated.
Six mutants with high scores were retested singly and none clearly outgrew wild type, so positive values are not proof of better growth.

Values reported by Ni et al. 2025 (doi:10.1038/s41467-025-63602-z).